COP(=S)(Cl)OC showed a log10 OH rate constant (cm³/molecule/s) of -10.2.

From the OPERA property sets (Mansouri et al. 2018)
